Results of unrelated studies side by side (data: NIAID ChemDB).

Common to all: whole-cell or culture tests; agent: Cytomegalovirus; cell line: HEL; measure: EC50

Rows are shuffled and stem from different studies. ECn: concentration that inhibits the pathogen or its effect by n%. Blank or dashed fields: not listed here.

{"compound": "Nc1ncnc2c1ncn2C[C@H](CF)OCP(=O)(O)O", "strain or isolate": "AD169", "read by": "cytopathic effect", "result": ">300 µM"}
{"compound": "CCC(c1cc(C)ccc1C)S(=O)(=O)c1c(C)ccc[n+]1[O-]", "read by": "cytopathic effect", "result": "0.83 µg/mL"}
{"compound": "Nc1nc(Cl)c2ncn([C@H]3CO[C@@H](CO)C3)c2n1", "strain or isolate": "AD169", "read by": "cytopathic effect", "result": ">40 µg/mL"}
{"compound": "CCCCCCCC(Sc1cccc[n+]1[O-])c1cc(C)c(C)c(C)c1", "read by": "cytopathic effect", "result": "2 µg/mL"}
{"compound": "Nc1ncnc2c1ncn2C[C@@H](CO)OCP(=O)(O)O", "strain or isolate": "AD169", "read by": "cytopathic effect", "result": "0.3 µg/mL"}
{"compound": "CCC(c1cc(C)ccc1C)S(=O)(=O)c1cccc[n+]1[O-]", "read by": "cytopathic effect", "result": "0.4 µg/mL"}
{"compound": "Nc1nc2c(ncn2C[C@H](CF)OCP(=O)(O)O)c(=O)[nH]1", "strain or isolate": "AD169", "read by": "cytopathic effect", "result": ">300 µM"}
{"compound": "CC1(C)[C@@H](CO)CC[C@@]1(C)Cn1cnc2c(N)ncnc21", "strain or isolate": "DAVIS", "read by": "cytopathic effect", "result": ">50 µg/mL"}
{"compound": "CC[C@@H](O)C1=C[C@@H](n2cnc3c(N)ncnc32)[C@H](O)[C@@H]1O", "strain or isolate": "DAVIS", "read by": "cytopathic effect", "result": ">50 µg/mL"}
{"compound": "O=c1[nH]c(=O)n([C@H]2C[C@H](O)[C@@H](CCl)O2)cc1I", "result": ">5 µM"}
{"compound": "Cc1cn([C@H]2C/C(=N\\O)[C@@H](CO)O2)c(=O)[nH]c1=O", "strain or isolate": "AD169", "read by": "cytopathic effect", "result": ">200 µg/mL"}
{"compound": "Nc1nc(N)c2ncn(C[C@@H](CO)OCP(=O)(O)O)c2n1", "strain or isolate": "AD169", "read by": "cytopathic effect", "result": "7.8 µM"}
{"compound": "Nc1nc2c(ncn2C[C@H]2CCC[C@H]2CO)c(=O)[nH]1", "strain or isolate": "DAVIS", "read by": "plaque count", "result": ">50 µg/mL"}
{"compound": "Nc1ncc2ncn(C[C@H](CF)OCP(=O)(O)O)c2n1", "strain or isolate": "AD169", "read by": "cytopathic effect", "result": ">300 µM"}
{"compound": "CCCCCc1ccc(-c2cc3cn([C@H]4C[C@H](Cl)[C@@H](CO)O4)c(=O)nc3o2)cc1", "result": ">5 µM"}
{"compound": "Nc1nc2c(ncn2COCCO)c(=O)[nH]1", "strain or isolate": "DAVIS", "read by": "plaque count", "result": "20 µg/mL"}
{"compound": "CC1(C)[C@@H](CO)CC[C@@]1(C)Cn1cc(Br)c(=O)[nH]c1=O", "strain or isolate": "AD169", "read by": "cytopathic effect", "result": ">50 µg/mL"}
{"compound": "Nc1ccn(C[C@@H](CO)OCP(=O)(O)O)c(=O)n1", "strain or isolate": "DAVIS", "read by": "plaque count", "result": "2.1 µM"}
{"compound": "O=c1[nH]c(=O)n([C@H]2C[C@H](Cl)[C@@H](CO)O2)cc1I", "result": ">5 µM"}
{"compound": "O=S(Cc1cccc(C(F)(F)F)c1)c1cccc[n+]1[O-]", "read by": "cytopathic effect", "result": ">50 µg/mL"}
{"compound": "Nc1ncnc2c1ncn2C[C@@H](CO)OCP(=O)(O)O", "strain or isolate": "AD169", "read by": "cytopathic effect", "result": "1 µg/mL"}
{"compound": "Cc1ccc(CSc2ccccn2)cc1C", "read by": "cytopathic effect", "result": "1.2 µg/mL"}
{"compound": "CC1(C)[C@@H](CO)CC[C@@]1(C)Cn1cnc2c(Cl)ncnc21", "strain or isolate": "DAVIS", "read by": "cytopathic effect", "result": ">50 µg/mL"}
{"compound": "CC(=O)OCCOCN1c2nc(Cc3ccccc3)[nH]c2C(N)=NS1(=O)=O", "strain or isolate": "DAVIS", "read by": "plaque count", "result": ">50 µg/mL"}
{"compound": "COc1cc(CS(=O)(=O)c2cccc[n+]2[O-])cc(OC)c1OC", "read by": "cytopathic effect", "result": ">50 µg/mL"}
{"compound": "Nc1nc(N)c2ncn(C[C@H]3CCC[C@H]3CO)c2n1", "strain or isolate": "AD169", "read by": "plaque count", "result": ">50 µg/mL"}
{"compound": "CC1(C)[C@@H](CO)CC[C@@]1(C)Cn1cnc2c(=O)[nH]cnc21", "strain or isolate": "AD169", "read by": "cytopathic effect", "result": ">50 µg/mL"}
{"compound": "CC1(C)[C@@H](CCO)C[C@H]1n1cnc2c(N)ncnc21", "strain or isolate": "DAVIS", "read by": "plaque count", "result": ">20 µg/mL"}
{"compound": "O=S(=O)(Cc1ccccc1)c1c(Cl)ccc[n+]1[O-]", "read by": "cytopathic effect", "result": ">5 µg/mL"}
{"compound": "CC1(C)[C@@H](CCO)C[C@H]1n1nnc2c(N)ncnc21", "strain or isolate": "DAVIS", "read by": "plaque count", "result": ">20 µg/mL"}
{"compound": "COc1cccnc1SCc1cc(C)ccc1C", "read by": "cytopathic effect", "result": ">50 µg/mL"}
{"compound": "O=C1OC(C(O)Cn2cc(C(F)(F)F)c(=O)[nH]c2=O)C(OCc2ccccc2)=C1OCc1ccccc1", "result": ">50 µg/mL"}
{"compound": "CC1(C)[C@@H](CCO)C[C@H]1n1cnc2c(N)nc(N)nc21", "strain or isolate": "AD169", "read by": "plaque count", "result": ">50 µg/mL"}
{"compound": "Nc1nc2c(ccn2[C@H]2CO[C@@H](CO)C2)c(=O)[nH]1", "strain or isolate": "AD169", "read by": "cytopathic effect", "result": ">40 µg/mL"}
{"compound": "O=C1OC(C(O)Cn2ccc(=O)[nH]c2=O)C(OCc2ccccc2)=C1OCc1ccccc1", "result": ">50 µg/mL"}
{"compound": "CN(C)c1ccnc(SCc2ccc(Cl)cc2)c1C#N", "read by": "cytopathic effect", "result": ">5 µg/mL"}
{"compound": "CN1c2ccc([N+](=O)[O-])cc2C(C)(C)C12C=Cc1cc([N+](=O)[O-])ccc1O2", "strain or isolate": "AD169", "read by": "plaque count", "result": ">8.7 µM"}
{"compound": "O=C1O/C(=C\\Cn2ccc(=O)[nH]c2=O)C(OCc2ccccc2)=C1O", "result": ">50 µg/mL"}
{"compound": "OC[C@H]1O[C@@H](c2cc(C(O)CI)c(F)cc2F)C[C@@H]1O", "strain or isolate": "DAVIS", "read by": "cytopathic effect", "result": ">200 µg/mL"}
{"compound": "Nc1ccn(C[C@@H](CO)OCP(=O)(O)O)c(=O)n1", "strain or isolate": "AD169", "read by": "cytopathic effect", "result": "0.2 µg/mL"}
{"compound": "C[C@H](Cn1cnc2c(N)nc(N)nc21)OCP(=O)(O)O", "strain or isolate": "AD169", "read by": "cytopathic effect", "result": ">30 µM"}
{"compound": "Cc1cn([C@@H]2O[C@H](CO)[C@@H](O)[C@@H]2F)c(=O)[nH]c1=O", "strain or isolate": "AD169", "read by": "plaque count", "result": "0.7 µg/mL"}
{"compound": "CC1(C)[C@@H](CCO)C[C@H]1n1nnc2c(N)nc(N)nc21", "strain or isolate": "AD169", "read by": "plaque count", "result": ">20 µg/mL"}
{"compound": "Cc1ccc(C)c(C(C)Sc2cccc[n+]2[O-])c1", "read by": "cytopathic effect", "result": ">20 µg/mL"}
{"compound": "C=C[C@@H](O)C1=C[C@@H](n2cnc3c(N)ncnc32)[C@H](O)[C@@H]1O", "strain or isolate": "DAVIS", "read by": "cytopathic effect", "result": ">50 µg/mL"}
{"compound": "Cc1ccc[n+]([O-])c1S(=O)(=O)C(C)c1cccc([N+](=O)[O-])c1C", "read by": "cytopathic effect", "result": ">50 µg/mL"}
{"compound": "CN1c2ccc(Cl)cc2C(C)(C)C12C=Nc1c(ccc3ccccc13)O2", "strain or isolate": "AD169", "read by": "plaque count", "result": ">44 µM"}
{"compound": "CC[C@H](O)C1=C[C@@H](n2cnc3c(N)ncnc32)[C@H](O)[C@@H]1O", "strain or isolate": "AD169", "read by": "cytopathic effect", "result": ">50 µg/mL"}
{"compound": "Nc1nc2c(ncn2[C@H]2CCC[C@H]2CO)c(=O)[nH]1", "strain or isolate": "AD169", "read by": "plaque count", "result": ">50 µg/mL"}
{"compound": "NC1=NS(=O)(=O)N(Cc2ccccc2)c2nc(-c3ccc(Cl)cc3)[nH]c21", "strain or isolate": "DAVIS", "read by": "plaque count", "result": ">5 µg/mL"}
{"compound": "COc1ccc2c(c1)OC1(C=C2)N(C)c2ccc(Cl)cc2C1(C)C", "strain or isolate": "AD169", "read by": "plaque count", "result": "12.6 µM"}
{"compound": "N#C/C(=C/c1c(Cl)cccc1Cl)S(=O)(=O)c1cccc[n+]1[O-]", "read by": "cytopathic effect", "result": ">20 µg/mL"}
{"compound": "Nc1ncnc2c1ncn2[C@@H]1C=C(CO)[C@@H](O)[C@H]1O", "strain or isolate": "DAVIS", "read by": "cytopathic effect", "result": "0.4 µg/mL"}
{"compound": "CC1(C)c2ccccc2N(c2ccccc2)C12C=Nc1c(ccc3ccccc13)O2", "strain or isolate": "DAVIS", "read by": "plaque count", "result": ">40.9 µM"}
{"compound": "O=[N+]([O-])c1ccc(SCc2ccccc2)nc1", "read by": "cytopathic effect", "result": ">5 µg/mL"}
{"compound": "Nc1ncnc2c1ncn2C[C@H](O)CO", "strain or isolate": "DAVIS", "read by": "cytopathic effect", "result": "70 µg/mL"}
{"compound": "OC[C@H]1O[C@@H](c2cc(C(O)C(I)I)c(F)cc2F)C[C@@H]1O", "strain or isolate": "AD169", "read by": "cytopathic effect", "result": ">200 µg/mL"}
{"compound": "Cc1ccc(C)c(C(C)S(=O)(=O)c2c(C)ccc[n+]2[O-])c1", "read by": "cytopathic effect", "result": "4.1 µg/mL"}
{"compound": "CC(C)CS[C@@H]1C=C[C@H](n2cnc3c(N)ncnc32)C1", "strain or isolate": "DAVIS", "read by": "cytopathic effect", "result": ">20 µg/mL"}
{"compound": "Nc1nc(N)c2ncn(C[C@@H](CF)OCP(=O)(O)O)c2n1", "strain or isolate": "AD169", "read by": "cytopathic effect", "result": ">300 µM"}
{"compound": "CN1c2ccc(Cl)cc2C(C)(C)C12C=Cc1c(ccc3ccccc13)O2", "strain or isolate": "AD169", "read by": "plaque count", "result": ">44.2 µM"}

The last 4 rows once more:

compound,strain or isolate,read by,result
Cc1ccc(C)c(C(C)S(=O)(=O)c2c(C)ccc[n+]2[O-])c1,,cytopathic effect,4.1 µg/mL
CC(C)CS[C@@H]1C=C[C@H](n2cnc3c(N)ncnc32)C1,DAVIS,cytopathic effect,>20 µg/mL
Nc1nc(N)c2ncn(C[C@@H](CF)OCP(=O)(O)O)c2n1,AD169,cytopathic effect,>300 µM
CN1c2ccc(Cl)cc2C(C)(C)C12C=Cc1c(ccc3ccccc13)O2,AD169,plaque count,>44.2 µM